Results of unrelated studies side by side (data: NIAID ChemDB).

Shared fields: tests in culture; species: Candida albicans; measure: MBC

Neighbouring rows are from separate reports. Blank or dashed fields: not listed here.

compound	strain or isolate	result
COc1ccc(/C=c2\sc3n(c2=O)C(c2cc(OC)c(OC)c(OC)c2)C=C(c2ccc(OC)c(OC)c2)N=3)cc1OC	DSM 70014	50 µg/mL
CCCCCCCCCCCCOC[N+](C)(C)Cc1cc(N=Nc2ccc(C)cc2)ccc1O		1986 µM
COc1ccc(C(=O)/C=C/c2cc(OC)c(OC)c(OC)c2)cc1OC	DSM 70014	200 µg/mL
CCCCCCCC[N+](C)(C)COCCC(C)CCCC(C)C	ATCC 10231	1370 µM
COc1cc(C2C=C(c3ccc4c(c3)OCO4)NC(=S)N2)cc(OC)c1OC	DSM 70014	200 µg/mL
CCCCCCCCCCCCOC[N+](C)(C)CCCCCCCC	ATCC 10231	25.5 µM
COc1ccc(C2=NN(c3ccccc3)C(c3cc(OC)c(OC)c(OC)c3)C2)cc1OC	DSM 70014	100 µg/mL
CCCCCOC[N+](C)(C)Cc1cc(N=Nc2ccc(C)cc2)ccc1O		308 µM
CCCCCCCC[N+](C)(C)COC1CCCCCCCCCCC1	ATCC 10231	256 µM
CCCCCCCCCCOC[N+](C)(C)Cc1cc(N=Nc2ccc(C)cc2)ccc1O		2103 µM
COc1ccc(-c2cc(-c3cc(OC)c(OC)c(OC)c3)nc(NN)n2)cc1OC	DSM 70014	50 µg/mL
Cc1ccc(N=Nc2ccc(O)c(C[N+](C)(C)COC3CCCCCCCCCCC3)c2)cc1		1994 µM
CCCCCCCCCCCCOC[n+]1cccc(NCn2nnc3ccccc32)c1	ATCC 10231	272 µM
C[N+](C)(COC1CCCCCCC1)Cc1cc(N=Nc2ccc(Cl)cc2)ccc1O		536 µM
CCCCCCCCCCOC[n+]1cccc(NCn2cnc3ccccc32)c1	ATCC 10231	290 µM
COc1cc(C2CC(c3ccc4c(c3)OCO4)=NN2c2ccc([N+](=O)[O-])cc2)cc(OC)c1OC	DSM 70014	50 µg/mL
CCCOC[n+]1cccc(NCn2nnc3ccccc32)c1	ATCC 10231	>1499 µM
CCCCCCCCCCCC[N+](C)(C)COC(C)CCCCCC	ATCC 10231	128 µM
CCCOC[N+](C)(C)Cc1cc(N=Nc2ccc(C)cc2)ccc1O		662 µM
COc1ccc(C2=CC(c3cc(OC)c(OC)c(OC)c3)NC(=S)N2)cc1OC	DSM 70014	100 µg/mL
CCCCCCCCCCCC[N+](C)(C)COCCC(C)C	ATCC 10231	28.6 µM
CCCCCCCCOC[n+]1cccc(NCn2nnc3ccccc32)c1	ATCC 10231	>1284 µM

A second listing of 3 rows from above:

CCCCCCCCCCCCOC[N+](C)(C)CCCCCCCC ; strain or isolate: ATCC 10231 ; result: 25.5 µM
COc1ccc(C2=NN(c3ccccc3)C(c3cc(OC)c(OC)c(OC)c3)C2)cc1OC ; strain or isolate: DSM 70014 ; result: 100 µg/mL
COc1ccc(C(=O)/C=C/c2cc(OC)c(OC)c(OC)c2)cc1OC ; strain or isolate: DSM 70014 ; result: 200 µg/mL